Where “and” joins values, the source holds several entries; their conditions need not be identical. Equal values may be shown once.
Experiments:
[1] = Total TEG in the air by GC/MS, sanitizing system with heated or unheated inlet air and filtration variants; conditions: for Total TEG in the air as measured by GC/MS: no in-line filtration
[2] = Total TEG in air as measured by GC/MS, TEG pipetted onto hotplate @ 250° C.
[3] = Total mass of 0.1-3 μm liquid particles in air, TEG pipetted onto hotplate @ 250° C., with or without HEPA filtration
[4] = Total mass of 0.1-3 μm liquid particles in air, TEG dosed from syringe pump onto hotplate @ 33 mg/min; conditions: syringe pump 33 mg/min

OCCOCCOCCO [TEG, triethylene glycol]
Total TEG in the air as measured by GC/MS ([1]; Fan inlet air at 70 F. (unheated), after 10 min of HEPA filtration, Time = 44 min): 1.75 mg/m^3
Total TEG in the air as measured by GC/MS ([1]; Fan inlet air at 70 F. (unheated), before HEPA filtration, Time = 5 min): 15.54 mg/m^3
Total TEG in the air as measured by GC/MS ([1]; Fan inlet air at 70 F. (unheated), before HEPA filtration, Time = 15 min): 10.88 mg/m^3
Total TEG in the air as measured by GC/MS ([1]; Fan inlet air at 70 F. (unheated), before HEPA filtration, Time = 30 min): 1.96 mg/m^3
Total TEG in the air as measured by GC/MS ([1]; Fan inlet air at 150 F. (heated), after 10 min of HEPA filtration, Time = 44 min): 2.62 mg/m^3
Total TEG in the air as measured by GC/MS ([1]; Fan inlet air at 150 F. (heated), before HEPA filtration, Time = 5 min): 34.05 mg/m^3
Total TEG in the air as measured by GC/MS ([1]; Fan inlet air at 150 F. (heated), before HEPA filtration, Time = 15 min): 17.29 mg/m^3
Total TEG in the air as measured by GC/MS ([1]; Fan inlet air at 150 F. (heated), before HEPA filtration, Time = 30 min): 4.09 mg/m^3
Total TEG in the air ([1]; Heated Inlet Air, No In-Line Filtration, Off-line RABBIT AIR HEPA filter running continuously during test, Timepoint 0 min): 0.00 mg/m^3
Total TEG in the air ([1]; Heated Inlet Air, No In-Line Filtration, Off-line RABBIT AIR HEPA filter running continuously during test, Timepoint 5 min): 17.01 mg/m^3
Total TEG in the air ([1]; Heated Inlet Air, No In-Line Filtration, Off-line RABBIT AIR HEPA filter running continuously during test, Timepoint 15 min): 4.86 mg/m^3
Total TEG in the air ([1]; Heated Inlet Air, No In-Line Filtration, Off-line RABBIT AIR HEPA filter running continuously during test, Timepoint 30 min): 2.77 mg/m^3
Total TEG in the air ([1]; Heated Inlet Air, No In-Line Filtration, Off-line RABBIT AIR HEPA filter running continuously during test, Timepoint 44 min): 3.16 mg/m^3
Total TEG in the air ([1]; Heated Inlet Air, No In-line Filtration, Off-line, Timepoint 0 min): 0.00 mg/m^3
Total TEG in the air ([1]; Heated Inlet Air, With In-Line Nonwoven filter, Off-line, Timepoint 0 min): 0.00 mg/m^3
Total TEG in the air ([1]; Heated Inlet Air, With In-Line Nonwoven filter, Off-line, Timepoint 5 min): 6.27 mg/m^3
Total TEG in the air ([1]; Heated Inlet Air, With In-Line Nonwoven filter, Off-line, Timepoint 15 min): 7.84 mg/m^3
Total TEG in the air ([1]; Heated Inlet Air, With In-Line Nonwoven filter, Off-line, Timepoint 30 min): 4.20 mg/m^3
Total TEG in the air ([1]; Heated Inlet Air, With In-Line Nonwoven filter, Off-line, Timepoint 44 min): 3.30 mg/m^3
Total TEG in the air ([1]; Unheated Inlet Air, No In-Line Filtration, Off-line RABBIT AIR HEPA filter running continuously during test, Timepoint 0 min): 0.00 mg/m^3
Total TEG in the air ([1]; Unheated Inlet Air, No In-Line Filtration, Off-line RABBIT AIR HEPA filter running continuously during test, Timepoint 5 min): 10.22 mg/m^3
Total TEG in the air ([1]; Unheated Inlet Air, No In-Line Filtration, Off-line RABBIT AIR HEPA filter running continuously during test, Timepoint 15 min): 0.49 mg/m^3
Total TEG in the air ([1]; Unheated Inlet Air, No In-Line Filtration, Off-line RABBIT AIR HEPA filter running continuously during test, Timepoint 30 min): 0.41 mg/m^3
Total TEG in the air ([1]; Unheated Inlet Air, No In-Line Filtration, Off-line RABBIT AIR HEPA filter running continuously during test, Timepoint 44 min): 0.00 mg/m^3
Total TEG in the air ([1]; Unheated Inlet Air, No In-line Filtration, Off-line, Timepoint 0 min): 0.00 mg/m^3
Total TEG in the air ([1]; Unheated Inlet Air, With In-Line Nonwoven filter, Off-line, Timepoint 0 min): 0 mg/m^3
Total TEG in the air ([1]; Unheated Inlet Air, With In-Line Nonwoven filter, Off-line, Timepoint 5 min): 9.44 mg/m^3
Total TEG in the air ([1]; Unheated Inlet Air, With In-Line Nonwoven filter, Off-line, Timepoint 15 min): 3.03 mg/m^3
Total TEG in the air ([1]; Unheated Inlet Air, With In-Line Nonwoven filter, Off-line, Timepoint 30 min): 0.10 mg/m^3
Total TEG in the air ([1]; Unheated Inlet Air, With In-Line Nonwoven filter, Off-line, Timepoint 44 min): 0.06 mg/m^3
Total TEG in air as measured by GC/MS ([2]; Post-Filtration): 3.85 mg/m3
Total TEG in air as measured by GC/MS ([2]; Pre-Filtration): 34.42 mg/m3
Total mass of 0.1-3 μm diameter liquid particles in air ([3]; Nil Filter, After 10 min of filtration Time = 21 min): 0.25 mg/m^3 and 0.22 mg/m^3 and 0.23 mg/m^3
Total mass of 0.1-3 μm diameter liquid particles in air ([3]; Nil Filter, After 15 min of filtration Time = 26 min): 0.17 mg/m^3 and 0.15 mg/m^3 and 0.16 mg/m^3
Total mass of 0.1-3 μm diameter liquid particles in air ([3]; Nil Filter, Filter powered on Time = 11 min): 0.83 mg/m^3 and 0.80 mg/m^3 and 0.68 mg/m^3 and 0.72 mg/m^3
Total mass of 0.1-3 μm diameter liquid particles in air ([3]; Nil Filter, Pre-Filter Time = 7 min): 1.36 mg/m^3 and 1.25 mg/m^3 and 1.17 mg/m^3 and 1.22 mg/m^3
Total mass of 0.1-3 μm diameter liquid particles in air ([3]; Post-Filtration): 0.008 mg/m3
Total mass of 0.1-3 μm diameter liquid particles in air ([3]; Pre-Filtration): 1.12 mg/m3
Total mass of 0.1-3 μm diameter liquid particles in air ([3]; With Filter, After 10 min of filtration Time = 21 min): 0.02 mg/m^3 and 0.03 mg/m^3
Total mass of 0.1-3 μm diameter liquid particles in air ([3]; With Filter, After 15 min of filtration Time = 26 min): 0.005 mg/m^3 and 0.006 mg/m^3 and 0.008 mg/m^3
Total mass of 0.1-3 μm diameter liquid particles in air ([3]; With Filter, Filter powered on Time = 11 min): 0.48 mg/m^3 and 0.59 mg/m^3 and 0.71 mg/m^3 and 0.70 mg/m^3 and 0.91 mg/m^3
Total mass of 0.1-3 μm diameter liquid particles in air ([3]; With Filter, Pre-Filter Time = 7 min): 1.17 mg/m^3 and 1.15 mg/m^3 and 1.68 mg/m^3 and 0.90 mg/m^3 and 1.34 mg/m^3 and 1.13 mg/m^3
Total mass of 0.1-3 μm diameter liquid particles in air ([4]; Nil Filter, After 10 min of filtration): 2.36 mg/m^3
Total mass of 0.1-3 μm diameter liquid particles in air ([4]; Nil Filter, After 15 min of filtration): 1.76 mg/m^3
Total mass of 0.1-3 μm diameter liquid particles in air ([4]; Nil Filter, After 20 min of filtration): 0.81 mg/m^3
Total mass of 0.1-3 μm diameter liquid particles in air ([4]; Nil Filter, Pre-Filter Time = 30 min): 2.94 mg/m^3
Total mass of 0.1-3 μm diameter liquid particles in air ([4]; With Filter, After 10 min of filtration): 0.25 mg/m^3 and 0.33 mg/m^3
Total mass of 0.1-3 μm diameter liquid particles in air ([4]; With Filter, After 15 min of filtration): 0.02 mg/m^3 and 0.03 mg/m^3
Total mass of 0.1-3 μm diameter liquid particles in air ([4]; With Filter, After 20 min of filtration): 0.003 mg/m^3 and 0.005 mg/m^3
Total mass of 0.1-3 μm diameter liquid particles in air ([4]; With Filter, Pre-Filter Time = 30 min): 3.47 mg/m^3 and 3.70 mg/m^3
